{"source": "the NIST ThermoML archive (doi:10.1016/j.tca.2014.11.027)", "settings": "Liquid; Gas Chromatography", "note": "± gives the expanded uncertainty stated by the source.", "data": [{"compound": "CCCCO[PH](=O)OCCCC", "note": "[dibutyl phosphonate]", "values": [{"measurement": "Normal boiling temperature", "result": "272.93 ± 2", "unit": "°C"}]}]}
